For the data set the following is noted: PET, t=0 hr, 3 month old and 26 month old rats.

With ^89Zr-DOTA-alendronate, the “uptake in the heart, associated venous flow (jugular veins and vena cava) and kidneys” value was “high initial uptake”.

For the origin of these results see patent publication US20230001027A1, “METAL CHELATING AGENTS AND METHODS OF USING THE SAME” (priority 2019, published 2023).
